Laboratory results as given in patent EP2033655B1 (priority 2007, dated 2009).

The chains behind the UniProt entries cited, without tags or fusion partners. Residues count along the entry.
UniProt P19338, 648-710 limits assumed: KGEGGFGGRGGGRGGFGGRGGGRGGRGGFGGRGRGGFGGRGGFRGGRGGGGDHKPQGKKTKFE
UniProt P19338, whole entry: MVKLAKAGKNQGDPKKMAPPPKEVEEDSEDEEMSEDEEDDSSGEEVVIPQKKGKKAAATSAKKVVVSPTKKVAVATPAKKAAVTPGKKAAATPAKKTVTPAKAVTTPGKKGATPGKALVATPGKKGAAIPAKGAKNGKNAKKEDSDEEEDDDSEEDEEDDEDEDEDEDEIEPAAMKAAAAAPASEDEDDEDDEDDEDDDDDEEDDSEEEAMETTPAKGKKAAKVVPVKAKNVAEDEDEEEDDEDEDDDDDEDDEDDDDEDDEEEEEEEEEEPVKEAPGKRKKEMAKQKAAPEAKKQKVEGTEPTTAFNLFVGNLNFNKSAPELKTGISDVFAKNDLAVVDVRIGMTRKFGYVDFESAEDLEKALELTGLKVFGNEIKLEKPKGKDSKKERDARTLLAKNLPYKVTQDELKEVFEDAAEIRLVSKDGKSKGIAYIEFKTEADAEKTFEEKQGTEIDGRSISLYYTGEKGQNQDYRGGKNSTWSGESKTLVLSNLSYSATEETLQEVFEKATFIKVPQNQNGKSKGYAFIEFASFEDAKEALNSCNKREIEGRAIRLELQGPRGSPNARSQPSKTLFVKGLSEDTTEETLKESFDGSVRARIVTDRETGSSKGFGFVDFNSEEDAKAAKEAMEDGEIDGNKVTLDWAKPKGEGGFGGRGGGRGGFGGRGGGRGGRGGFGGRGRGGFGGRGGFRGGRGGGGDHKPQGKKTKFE

Legend:
F. tularensis LVS [1] = assay type: cell-based, Francisella tularensis
F. tularensis LVS [2] = assay type: cell-based, Francisella tularensis; conditions: 23 h
nucleolin = assay type: binding, human
[3] = target: T1, EF-Tu / RGG domain of nucleolin (Homo sapiens, UniProt P19338); assay type: binding, F. tularensis
T1 construct: made in house; host or cells: EF-Tu: E. coli BL21 DE3 (pET28a+); p63: chemical synthesis

[4] = target: T2, cell-surface expressed nucleolin (Homo sapiens, UniProt P19338); test: cell-based; conditions: HeLaP4, read-out: inhibitory activity
T2 construct: endogenous in cells; host or cells: HeLa P4 cells

Compound | effect on LVS-GFP binding (F. tularensis LVS [1]) | inhibition of the binding of LVS-GFP (F. tularensis LVS [1]) [%] | decrease of infection (F. tularensis LVS [2]) [%] | binding of HB-19 to RGG domain alone (nucleolin) | effect on binding of the biotin-labeled p63 peptide to EF-Tu [3] | inhibition at 0.8 µM [4] [%]
CCCC[C@H](NC(=O)[C@H](CCCCNC(=O)[C@H](CCCNC(=N)N)NC(=O)[C@@H]1CCCN1C[C@@H](N)CCCCN)NC(=O)[C@H](CCC(=O)O)NC(=O)[C@H](CCCCNC(=O)[C@H](CCCNC(=N)N)NC(=O)[C@@H]1CCCN1C[C@@H](N)CCCCN)NC(=O)[C@@H]1CCCN1C(=O)CNC(=O)[C@H](CCCCNC(=O)[C@H](CCCNC(=N)N)NC(=O)[C@@H]1CCCN1C[C@@H](N)CCCCN)NC(=O)[C@H](CCCCN)NC(=O)[C@H](CCCCNC(=O)[C@H](CCCNC(=N)N)NC(=O)[C@@H]1CCCN1C[C@@H](N)CCCCN)NC(=O)[C@H](CCCNC(=N)N)NC(=O)[C@@H]1CCCN1C[C@@H](N)CCCCN)C(N)=O [HB-19, 5[Lys (CH2N)Pro-Arg]-template-assembled synthetic peptide] | no effect | 70 | 80 | sufficient for binding | markedly inhibited | –
CC(=O)N[C@@H](CCCCNC(=O)[C@H](CCCNC(=N)N)NC(=O)[C@@H]1CCCN1C[C@@H](N)CCCCN)C(=O)NC(C)(C)C(=O)NCC(=O)N[C@@H](CCCCNC(=O)[C@H](CCCNC(=N)N)NC(=O)[C@@H]1CCCN1C[C@@H](N)CCCCN)C(=O)NC(C)(C)C(=O)NCC(=O)N[C@@H](CCCCNC(=O)[C@H](CCCNC(=N)N)NC(=O)[C@@H]1CCCN1C[C@@H](N)CCCCN)C(=O)NC(C)(C)C(=O)NCC(=O)N[C@@H](CCCCNC(=O)[C@H](CCCNC(=N)N)NC(=O)[C@@H]1CCCN1C[C@@H](N)CCCCN)C(=O)NC(C)(C)C(=O)NCC(=O)N[C@@H](CCCCNC(=O)[C@H](CCCNC(=N)N)NC(=O)[C@@H]1CCCN1C[C@@H](N)CCCCN)C(=O)NC(C)(C)C(=O)NCC(=O)N[C@@H](CCCCNC(=O)[C@H](CCCNC(=N)N)NC(=O)[C@@H]1CCCN1C[C@@H](N)CCCCN)C(=O)NC(C)(C)C(=O)NCC(N)=O [Nucant 6] | – | – | – | – | – | > 95
